Measured values from several laboratories, pooled; numbers as filed in NIAID ChemDB.

Shared fields: cytotoxicity tests; cells: VERO; endpoint: CC50

CCn is the concentration with n% toxicity to the cells. Rows are shuffled and stem from different studies. Blank or dashed fields: not listed here.

smiles	method	value
CSc1nsc(-c2ccccc2)c1C(=O)O	-	500 µg/mL
CCOC(=O)CCc1ccccc1O[P@@](=O)(N[C@@H](C)C(=O)OC(C)C)OC[C@H]1O[C@@H](n2cnc3c(N)nc(N)nc32)[C@](C)(O)[C@@H]1O	-	>100 µM
Nc1nc2c(ncn2CCC(CO)COP2(=O)OCc3ccccc3O2)c(=O)[nH]1	-	>294 µM
Nc1ncnc2c1ncn2[C@@H]1C=C(CO)[C@@H](O)[C@H]1O	-	0.25 µg/mL
COc1ccc2c3c([nH]c2c1)C(C)=NCC3	MTT	11.54 µg/mL
CSC(=S)NN=C1CCCC1	-	12.98 µg/mL
O=[N+]([O-])c1c[nH]cc1-c1cc(Cl)cc(Cl)c1	-	1 µg/mL
COc1ccc2c(c1)COP(=O)(OC[C@H]1O[C@@H](n3cc(/C=C/Br)c(=O)[nH]c3=O)C[C@@H]1O)O2	-	>128 µg/mL
CC1=C(C)C(CO)(CO)C[C@H]1n1cnc2c(N)ncnc21	-	>100 µg/mL
CSc1nsc(-c2ccccc2)c1C(N)=O	-	250 µg/mL
CCn1cc(C#N)c(=O)c2ccc(-c3ccncc3)cc21	-	>100 µg/mL
Nc1ccccc1-c1c2nc(c(-c3ccccc3N)c3ccc([nH]3)c(-c3ccccc3N)c3nc(c(-c4ccccc4N)c4ccc1[nH]4)C=C3)C=C2	-	41.8 µM
COc1cc(/C=C2\CC/C(=C\c3ccc(OCCCn4ccnc4)c(OC)c3)C2=O)ccc1OCCCn1ccnc1	MTT	>9 µM
O=C(O)P(=O)(O)O	-	>100 µM
COc1ccc2c(C)cc(N/N=C/c3ccccn3)nc2c1	-	0.82 µg/mL
CCOC(=O)CCc1ccccc1O[P@](=O)(N[C@@H](C)C(=O)OCC)OC[C@H]1O[C@@H](n2cnc3c(N)nc(N)nc32)[C@](C)(O)[C@@H]1O	-	>100 µM
Cc1c(CN2CCSCC2)cc(-c2ccc(F)cc2)n1-c1ccc(Cl)cc1	-	8 µg/mL
COc1cc(/C=C2\CC/C(=C\c3ccc(OCCN(C)C)c(OC)c3)C2=O)ccc1OCCN(C)C	MTT	>9 µM
CC1=C(C)[C@](CO)(c2ccccc2)C[C@H]1n1cnc2c(N)ncnc21	-	>100 µg/mL
OC[C@@H]1O[C@@H](n2cnc3c(Cl)ncnc32)CS1	-	>32.7 µM
O=C1O[C@@H](CNc2ccon2)[C@@H]2COc3cc(C4=CCN(CCO)CC4)c(F)cc3N12	resazurin	>64 µg/mL
Cc1cccc2c1OP(=O)(OC[C@H]1O[C@@H](n3cc(/C=C/Br)c(=O)[nH]c3=O)C[C@@H]1OC(=O)[C@H](N)C(C)C)OC2	-	123 µg/mL
Cc1c2cc[n+]([O-])cc2c(C)c2c1oc1ccccc12	-	1.16 µg/mL
COc1cc(O)c(CC=C(C)C)c2c1C(=O)CC(c1ccc(O)cc1)O2	-	55 µg/mL
CC(C)OC(=O)CCc1ccccc1O[P@](=O)(N[C@@H](C)C(=O)OC(C)C)OC[C@H]1O[C@@H](n2cnc3c(N)nc(N)nc32)[C@](C)(O)[C@@H]1O	-	>100 µM
Cc1cccc2c1OP(=O)(OCC(CO)CCn1cnc3c(=O)[nH]c(N)nc31)OC2	-	>328 µM
Oc1ccc2c(c1)[nH]c1ccccc12	-	>128 µM
CN1C(=O)C2(C)SSC1(C)C(=O)N2C	-	38.79 µg/mL
Cc1cc(O)c2c(c1Cl)C(=O)C=CC2=O	XTT	7.6 µg/mL
CCSc1nsc(-c2ccccc2)c1C#N	-	100 µg/mL
CCOC(=O)[C@H](C)N[P@](=O)(OC[C@H]1O[C@@H](n2cnc3c(N)nc(N)nc32)[C@](C)(O)[C@@H]1O)Oc1ccccc1CCC(=O)OC(C)C	-	>100 µM
CCCSc1nsc(-c2ccccc2)c1C(=O)O	-	500 µg/mL
Clc1ccc(Cl)c(N/N=C/c2c[nH]c3ccccc23)c1	-	5.4 µg/mL
Cc1cc2no[n+]([O-])c2cc1C	-	>10 µg/mL
CO[C@H]1/C=C/O[C@@]2(C)Oc3c(C)c(O)c4c(O)c(c(/C=N/N5CCN(C)CC5)c(O)c4c3C2=O)NC(=O)/C(C)=C\C=C\[C@H](C)[C@H](O)[C@@H](C)[C@@H](O)[C@@H](C)[C@H](OC(C)=O)[C@@H]1C	XTT	>300 µg/mL
O=Cc1cc2c3ccc(O)cc3[nH]c2c2ccoc12	-	40 µM
Cc1c(CN2CCSCC2)cc(-c2ccccc2)n1-c1ccc(F)cc1	-	8 µg/mL
COc1ccc2c(c1)c1cc(CO)c(C)cc1n2C	-	>128 µM
CCCn1cc(C(N)=O)c(=O)c2ccc(-c3ccncc3)cc21	-	>6.25 µg/mL
COc1ccc(-c2c[nH]cc2[N+](=O)[O-])c(Cl)c1	-	2 µg/mL
CN1C(=O)C23SSC1(C)C(=O)N2c1ccccc1C3(C)C	-	6 µg/mL
c1ccc2c(CNc3ccc(N4CCSCC4)cc3)cccc2c1	-	4 µg/mL
O=C1C(=O)c2cccnc2-c2ncccc21	-	3 µg/mL
NC(=O)c1cn(-c2ccncc2)c2cc(-c3ccncc3)ccc2c1=O	-	>200 µg/mL
O=C(NC[C@@H]1OC(=O)N2c3cc(F)c(C4=CCN(C(=O)CO)CC4)cc3OC[C@@H]12)C1CC1	resazurin	>64 µg/mL
CCN1C=C2C(=O)CN=C2c2ccc(-c3ccncc3)cc21	-	>100 µg/mL
COc1cc(/C=C2\CC/C(=C\c3ccc(OCCCn4ccnc4C)c(OC)c3)C2=O)ccc1OCCCn1ccnc1C	MTT	>9 µM
CC1OC2CC(=O)OC2C2=C1C(=O)c1c(O)cccc1C2=O	-	0.4 µg/mL
Cc1cn(CCC(CO)COP2(=O)OCc3ccccc3O2)c(=O)[nH]c1=O	-	>364 µM
Cc1cn([C@H]2C[C@H](N=[N+]=[N-])[C@@H](CO)O2)c(=O)[nH]c1=O	-	29 µM
O=C1O[C@@H](CNC(=O)C(F)(F)F)[C@@H]2COc3cc(C4=CCN(CCO)CC4)c(F)cc3N12	resazurin	>64 µg/mL
Cc1c(CN2CCSCC2)cc(-c2ccc(F)cc2)n1-c1ccc(F)cc1	-	8 µg/mL
CC(C)(C)c1cc(-c2c3nc(c(-c4cc(C(C)(C)C)c(O)c(C(C)(C)C)c4)c4ccc([nH]4)c(-c4cc(C(C)(C)C)c(O)c(C(C)(C)C)c4)c4nc(c(-c5cc(C(C)(C)C)c(O)c(C(C)(C)C)c5)c5ccc2[nH]5)C=C4)C=C3)cc(C(C)(C)C)c1O	-	>100 µM
Nc1ncnc2c1ncn2[C@@H]1OC[C@](CO)(CCP(=O)(O)O)[C@@H]1F	MTT	>100 µM
OC(c1cc(-c2ccccc2)nc2c(Cl)cc(Cl)cc12)C1CCCCN1	-	1.5 µg/mL
CC(=O)O[C@H]1C[C@H](n2cc(/C=C/Br)c(=O)[nH]c2=O)O[C@@H]1COP1(=O)OCc2ccccc2O1	-	47.6 µg/mL
N#Cc1c(N2CCCCC2)nsc1-c1ccccc1	-	25 µg/mL
CCOC(=O)[C@H](C)NP(=O)(OC[C@H]1O[C@@H](n2cnc3c(N)nc(N)nc32)[C@](C)(O)[C@@H]1O)Oc1ccccc1CCC(=O)OC(C)C	-	>100 µM
CN(C)c1ccc(-c2c3nc(c(-c4ccc(N(C)C)cc4)c4ccc([nH]4)c(-c4ccc(N(C)C)cc4)c4nc(c(-c5ccc(N(C)C)cc5)c5ccc2[nH]5)C=C4)C=C3)cc1	-	36.8 µM
Nc1nc2c(ncn2CCC(CO)CO)c(=O)[nH]1	-	>505 µM
Oc1ccc(-c2c3nc(c(-c4ccc(O)cc4)c4ccc([nH]4)c(-c4ccc(O)cc4)c4nc(c(-c5ccc(O)cc5)c5ccc2[nH]5)C=C4)C=C3)cc1	-	4.1 µM
CCOc1ccc(Nc2nc3c(s2)C(=O)c2ccccc2C3=O)cc1	-	5 µg/mL
CC1(C)Oc2cc3oc(-c4cc(O)cc(OC5OC[C@@H](O)[C@H](O)[C@H]5O)c4)cc3cc2CC1O	-	250 µg/mL
CC(=O)O[C@H]1C[C@H](n2cc(/C=C/Br)c(=O)[nH]c2=O)O[C@@H]1COP1(=O)OCc2cccc(C)c2O1	-	>128 µg/mL
Nc1ccn([C@@H]2CS[C@H](CO)O2)c(=O)n1	-	>100 µM
COc1cc(CO)cc2c1[nH]c1ccccc12	-	>128 µM
COc1cc(/C=C2\CC/C(=C\c3ccc(OCCn4ccnc4C)c(OC)c3)C2=O)ccc1OCCn1ccnc1C	MTT	>9 µM
CC(C)OC(=O)CCc1ccccc1OP(=O)(N[C@@H](C)C(=O)OC(C)C)OC[C@H]1O[C@@H](n2cnc3c(N)nc(N)nc32)[C@](C)(O)[C@@H]1O	-	>100 µM
CO[C@H]1/C=C/O[C@@]2(C)Oc3c(C)c(O)c4c(O)c(c(/C=N/N5CCN(C)CC5)c(O)c4c3C2=O)NC(=O)/C(C)=C\C=C\[C@H](C)[C@H](O)[C@@H](C)[C@@H](O)[C@@H](C)[C@H](OC(C)=O)[C@@H]1C	MTT	512 µg/mL
O=c1[nH]c(=O)n([C@H]2C[C@H](O)[C@@H](COP3(=O)OCc4c(Cl)cccc4O3)O2)cc1/C=C/Br	-	82.3 µg/mL
COc1cc(C)c2sc3ccccc3c(=O)c2c1NCCN(C)C.O=C(O)/C=C/C(=O)O	-	1.77 µg/mL
C[C@@H](N)C(=O)O[C@H]1C[C@H](n2cc(/C=C/Br)c(=O)[nH]c2=O)O[C@@H]1COP1(=O)OCc2ccccc2O1	-	>128 µg/mL
Cc1cn(CCC(CO)CO)c(=O)[nH]c1=O	-	>593 µM
O=C(NC[C@@H]1OC(=O)N2c3cc(F)c(C4=CCN(CCO)CC4)cc3OC[C@@H]12)C1CC1	resazurin	>64 µg/mL
COc1ccc(-c2cn(C)cc2[N+](=O)[O-])c(Cl)c1	-	2 µg/mL
CC(=O)NC[C@@H]1OC(=O)N2c3cc(F)c(C4=CCN(C(=O)CN)CC4)cc3OC[C@@H]12	resazurin	>64 µg/mL
COc1cc(C(=O)O)cc2c1[nH]c1ccccc12	-	>128 µM
Cc1[nH]c2ccccc2c1/C=N/Nc1ccccc1	-	>10 µg/mL
O=C(NNC(=S)Nc1cccc(Cl)c1)c1ccncc1	-	>62.5 µg/mL
Nc1ncnc2c1ccn2[C@@H]1O[C@H](CO)[C@H](O)[C@H]1O	-	40 µg/mL
O=c1[nH]c(=O)n([C@H]2C[C@H](O)[C@@H](COP3(=O)OCc4cc(-c5ccccc5)ccc4O3)O2)cc1/C=C/Br	-	>128 µg/mL
COc1cc2c(cc1O)N=CC1CCC(O)N1C2=O	-	17.08 µg/mL
CCOC(=O)c1c[nH]cc1-c1ccc(Cl)cc1Cl	-	2 µg/mL
O=[N+]([O-])c1ccc(N2CCOCC2)c2c1no[n+]2[O-]	-	0.11 µg/mL
CCCCCCCn1c2ccccc2c2c(OC)c(CO)c(C)cc21	-	40 µM
CCOC(=O)C1=C(C(=O)c2ccccc2)C(c2ccc([N+](=O)[O-])cc2)C(C(=O)c2ccccc2)=C(C(=O)OCC)N1	-	22.7 µg/mL
COC1=C(C)C(C)(O)c2[nH]c3ccc(OC)cc3c2C1=O	-	>128 µM
CC[N+](CC)=c1cc2oc3cc(N(C)C)ccc3nc-2cc1C.[Cl-]	-	2.49 µg/mL
CN1CCN(c2ccccc2NCc2cccc3ccccc23)CC1	-	2 µg/mL
Cc1ccc(NCCN(C)C)c2c(=O)c3ccc(O)cc3sc12	-	<0.51 µg/mL
COc1c(CO)c(C)c(CC(C)OC(C)=O)c2[nH]c3ccc(C(=O)CC4=C(C)CC(C)(C)CC4)cc3c12	-	>128 µM
CC(C)OC(=O)NNC(=O)c1ccncc1	-	0.1 µg/mL
Oc1ccccc1-c1c2nc(c(-c3ccccc3O)c3ccc([nH]3)c(-c3ccccc3O)c3nc(c(-c4ccccc4O)c4ccc1[nH]4)C=C3)C=C2	-	5.3 µM

Repeating the final 14 entries:

smiles	method	value
Nc1ncnc2c1ccn2[C@@H]1O[C@H](CO)[C@H](O)[C@H]1O	-	40 µg/mL
O=c1[nH]c(=O)n([C@H]2C[C@H](O)[C@@H](COP3(=O)OCc4cc(-c5ccccc5)ccc4O3)O2)cc1/C=C/Br	-	>128 µg/mL
COc1cc2c(cc1O)N=CC1CCC(O)N1C2=O	-	17.08 µg/mL
CCOC(=O)c1c[nH]cc1-c1ccc(Cl)cc1Cl	-	2 µg/mL
O=[N+]([O-])c1ccc(N2CCOCC2)c2c1no[n+]2[O-]	-	0.11 µg/mL
CCCCCCCn1c2ccccc2c2c(OC)c(CO)c(C)cc21	-	40 µM
CCOC(=O)C1=C(C(=O)c2ccccc2)C(c2ccc([N+](=O)[O-])cc2)C(C(=O)c2ccccc2)=C(C(=O)OCC)N1	-	22.7 µg/mL
COC1=C(C)C(C)(O)c2[nH]c3ccc(OC)cc3c2C1=O	-	>128 µM
CC[N+](CC)=c1cc2oc3cc(N(C)C)ccc3nc-2cc1C.[Cl-]	-	2.49 µg/mL
CN1CCN(c2ccccc2NCc2cccc3ccccc23)CC1	-	2 µg/mL
Cc1ccc(NCCN(C)C)c2c(=O)c3ccc(O)cc3sc12	-	<0.51 µg/mL
COc1c(CO)c(C)c(CC(C)OC(C)=O)c2[nH]c3ccc(C(=O)CC4=C(C)CC(C)(C)CC4)cc3c12	-	>128 µM
CC(C)OC(=O)NNC(=O)c1ccncc1	-	0.1 µg/mL
Oc1ccccc1-c1c2nc(c(-c3ccccc3O)c3ccc([nH]3)c(-c3ccccc3O)c3nc(c(-c4ccccc4O)c4ccc1[nH]4)C=C3)C=C2	-	5.3 µM